Anti-infective test results gathered from many reports (values: NIAID ChemDB through PubChem).

All rows: whole-cell or culture tests; species: Rhinovirus; cells: HeLa; endpoint: EC50

ECn: concentration that inhibits the pathogen or its effect by n%. Rows are shuffled and stem from different studies.

SMILES | strain or isolate | method | result
CCOC(=O)c1ccc(OCCC2CCN(c3ccc(C)nn3)CC2)cc1 | Serotype 66 | cytopathic effect | <0.1 µg/mL
CCOc1cc(OC)ccc1-c1cc(N(CC)CC)no1 | Serotype 42 (group A) | cytopathic effect | >90 µM
CCOC(=O)c1ccc(OCCCCC(=O)c2ccc(Cl)cc2)cc1 | Serotype 14 | cytopathic effect | 2.7 µM
CCS(=O)(=O)c1ccc(Cc2ccc(Cl)c(Cl)c2)nc1C(N)=O | TYPE 64 | cytopathic effect | 2.5 µg/mL
Cc1ccc(C(=O)CCCCOc2ccc(C3=NCCO3)cc2)cc1C | Serotype 14 | cytopathic effect | 57 µM
N#Cc1ccc2c(c1)CCC(c1ccccc1)O2 | Serotype 1B | plaque count | 0.14 µM
COc1ccc(-c2cc(N3CCCC3)no2)c(O)c1 | Serotype 85 (group B) | cytopathic effect | >384 µM
CS(=O)(=O)c1ccc(Cc2ccc(Cl)c(Cl)c2)nc1 | TYPE 2 | cytopathic effect | 0.6 µg/mL
COCc1cc(CCCOc2c(Cl)cc(-c3noc(C)n3)cc2Cl)on1 | Serotype 41 | cytopathic effect | 0.154 µg/mL
CCS(=O)(=O)c1cccnc1Oc1ccc(C(=O)c2ccccc2)cc1 | TYPE 64 | cytopathic effect | >10 µg/mL
CCCc1nc(-c2c(C)cc(OCCCc3ccc(CO)nn3)cc2C)no1 | serotypes 3 4 5 9 16 18 38 66 75 67 | cytopathic effect | 0.02 µg/mL
CS(=O)(=O)c1ccc(NCCc2ccc(Cl)cc2)nc1 | TYPE 2 | cytopathic effect | 3.1 µg/mL
N#Cc1ccc2c(c1)C=C(c1ccccc1)CO2 | Serotype 1B | plaque count | 4.8 µM
CS(=O)(=O)c1ccc(Oc2ccc(C(=O)c3ccccc3)cc2)nc1 | TYPE 33 | cytopathic effect | >5 µg/mL
O=C(CCCCOc1ccc(C2=NCCO2)cc1)c1ccc(Cl)cc1 | Serotype 14 | cytopathic effect | 57 µM
CCc1ccc(CCCOc2c(C)cc(-c3nnn(C)n3)cc2C)o1 | serotypes 2 14 1A 1B 6 21 22 15 25 30 50 67 89 86 41 | cytopathic effect | 0.453 µg/mL
C#CCOc1cc(OC)ccc1-c1cc(N(CC)CC)no1 | Serotype 59 (group B) | cytopathic effect | >40 µM
N#Cc1ccc(OCCCCC(=O)c2ccccc2)cc1 | Serotype 14 | cytopathic effect | 140 µM
Cc1cc(CCCCCOc2c(Cl)cc(C3=NCCO3)cc2Cl)on1 | TYPE 41 | plaque count | 0.41 µg/mL
CC(=O)c1ccc(CCCOc2c(C)cc(-c3noc(C(F)(F)F)n3)cc2C)nn1 | serotypes 3 4 5 9 16 18 38 66 75 67 | cytopathic effect | 0.14 µg/mL
N#Cc1ccc(C2=Cc3cc(C#N)ccc3OC2)cc1 | Serotype 1B | cytopathic effect | >8 µM
CCc1nc(-c2cc(C)c(OCCCc3cc(COC)no3)c(C)c2)no1 | Serotype 1B | cytopathic effect | 0.069 µg/mL
CS(=O)(=O)c1ccc(NCc2ccc(Cl)c(Cl)c2)nc1 | TYPE 13 | cytopathic effect | >10 µg/mL
CCN(CC)c1cc(-c2ccc(O)cc2O)on1 | Serotype 14 | cytopathic effect | >121 µM
COC(=O)c1cc(CCCOc2c(C)cc(-c3noc(C)n3)cc2C)on1 | Serotype 15 | cytopathic effect | 0.148 µg/mL
Cc1ccc(CCCOc2c(C)cc(C#N)cc2C)o1 | serotypes 2 14 1A 1B 6 21 22 15 25 30 50 67 89 86 41 | cytopathic effect | 0.313 µg/mL
N=C(N)c1ccc(C2=Cc3cc(C(=N)N)ccc3OC2)cc1 | Serotype 1B | plaque count | 12.8 µM
CC(=O)Nc1ccc(Cc2ccc(S(C)(=O)=O)cn2)cc1 | TYPE 64 | cytopathic effect | >10 µg/mL
N#Cc1ccc(OCCCCC(=O)c2ccc(F)cc2)cc1 | Serotype 14 | cytopathic effect | >35 µM
CCN(CC)c1cc(-c2ccc(OC)cc2OC)on1 | Serotype 42 (group A) | cytopathic effect | >362 µM
N#Cc1ccc(C2CCc3ccccc3O2)cc1 | Serotype 1B | plaque count | 2.88 µM
Cc1ccc(C(=O)CCCCOc2ccc(C#N)cc2)cc1 | Serotype 2 | cytopathic effect | >269 µM

3 of the rows above, restated:

SMILES | strain or isolate | method | result
N=C(N)c1ccc(C2=Cc3cc(C(=N)N)ccc3OC2)cc1 | Serotype 1B | plaque count | 12.8 µM
O=C(CCCCOc1ccc(C2=NCCO2)cc1)c1ccc(Cl)cc1 | Serotype 14 | cytopathic effect | 57 µM
N#Cc1ccc2c(c1)CCC(c1ccccc1)O2 | Serotype 1B | plaque count | 0.14 µM